Results reported in patent US8703172B2, “Sphingolipids for improvement of the composition of the intestinal flora” (Nederlandse Organizatie voor …, priority 2003, dated 2014).

Test system: Escherichia coli 0157:H7
Test: MIC on agar plates (TSA)
Conditions: for MIC, E. coli O157:H7: TSA agar plate, aerobic, 48 hours at 30° C.; for MIC: Escherichia coli, 48 h, read-out: MIC, E. coli O157:H7

Molecule | MIC, E. coli O157:H7 | MIC
CCCCCCCCCCCCC/C=C/[C@@H](O)[C@@H](N)COP(=O)([O-])OCC[N+](C)(C)C [Lysosphingomyelin, lysosphingomyelin] | >365 µg/mL | –
CCCCCCCCCCCCCC[C@@H](O)[C@@H](O)[C@@H](N)CO [Phytosphingosine, phytosphingosine] | – | > 731 µg/mL
CC(=O)O.CCCCCCCCCCCCCCC[C@@H](O)[C@@H](N)CO [Sphinganine, sphinganine acetate] | – | > 731 µg/mL
CCCCCCCCCCCCC/C=C/[C@@H](O)[C@@H](N)CO [Sphingosine, sphingosine] | – | > 731 µg/mL
glucosylceramide III | >365 µg/mL | –
sphingomyelin | >731 µg/mL | –
